This data set has as its system KpDsbA. In words: ITC binding of DsbB-derived peptides to KpDsbA. More on the design: species or system K. pneumoniae. Conditions: three independent experiments; for ΔH (enthalpy of binding): pH 7.4, 25 °C in method, 20 °C in table footnote, mean ± SD; for Stoichiometry: pH 7.4, single-site model. The method, then:
Amidation and acetylation ensure that there are no charges on the peptide termini, as these are not present in the native DsbB loop sequence. Binding affinity was measured using a MicroCal™ Auto-iTC200 from (GE Healthcare, USA) at 25 °C. The sample cell was loaded with 200 μL of 100 μM KpDsbA or EcDsbA in 25 mM HEPES, 50 mM NaCl, pH 7.4, and DMSO 0.8 %. The peptide (3 mM) diluted in the same buffer was titrated with an initial injection of 0.5 μL into DsbA, followed by 19 consecutive injections (2.0 μL) offset by 180 s, while the solution was constantly stirred (1000 rpm). Data were fitted to a single-site binding model using MicroCal™ Origin 7.0 software (Origin 7 SR4 v7.0552). Experiments were conducted in triplicate and affinity and thermodynamic parameters are reported as means and standard deviations (Table 4).

The structures appear in SMILES notation.

As for `CC(=O)N1CCC[C@H]1C(=O)N[C@@H](CO)C(=O)N1CCC[C@H]1C(=O)N[C@@H](Cc1ccccc1)C(=O)N[C@@H](C)C(=O)N[C@H](C(=O)N[C@@H](CS)C(=O)N[C@@H](CC(=O)O)C(N)=O)[C@@H](C)O`, the “ΔH (enthalpy of binding)” value is -39.7 ± 2.9 kJ/mol and the Stoichiometry amounted to 0.93.
Turning to `CC(=O)N1CCC[C@H]1C(=O)N[C@@H](CO)C(=O)N1CCC[C@H]1C(=O)N[C@@H](Cc1ccccc1)C(=O)N[C@@H](CCC(N)=O)C(=O)N[C@H](C(=O)N[C@@H](CS)C(=O)N[C@@H](CC(=O)O)C(N)=O)[C@@H](C)O`, the “ΔH (enthalpy of binding)” value is -46.4 ± 0.84 kJ/mol and the Stoichiometry is given as 0.97.

The values are drawn from PMC3828196 (PLoS ONE, 2013).
